The source made the active and inactive calls. How the calls were made is not given here.
Target: Chaperone protein DnaK (Escherichia coli (strain K12)) (UniProt P0A6Y8)
Assay: E. coli DnaK SBD ligand binding – biophysical, NMR, chaperone (AID 1033)
Settings: Purified DnaK SBD

Amino acid sequences for entries named in this document (tags omitted).
UniProt P0A6Y8, whole entry, looked up: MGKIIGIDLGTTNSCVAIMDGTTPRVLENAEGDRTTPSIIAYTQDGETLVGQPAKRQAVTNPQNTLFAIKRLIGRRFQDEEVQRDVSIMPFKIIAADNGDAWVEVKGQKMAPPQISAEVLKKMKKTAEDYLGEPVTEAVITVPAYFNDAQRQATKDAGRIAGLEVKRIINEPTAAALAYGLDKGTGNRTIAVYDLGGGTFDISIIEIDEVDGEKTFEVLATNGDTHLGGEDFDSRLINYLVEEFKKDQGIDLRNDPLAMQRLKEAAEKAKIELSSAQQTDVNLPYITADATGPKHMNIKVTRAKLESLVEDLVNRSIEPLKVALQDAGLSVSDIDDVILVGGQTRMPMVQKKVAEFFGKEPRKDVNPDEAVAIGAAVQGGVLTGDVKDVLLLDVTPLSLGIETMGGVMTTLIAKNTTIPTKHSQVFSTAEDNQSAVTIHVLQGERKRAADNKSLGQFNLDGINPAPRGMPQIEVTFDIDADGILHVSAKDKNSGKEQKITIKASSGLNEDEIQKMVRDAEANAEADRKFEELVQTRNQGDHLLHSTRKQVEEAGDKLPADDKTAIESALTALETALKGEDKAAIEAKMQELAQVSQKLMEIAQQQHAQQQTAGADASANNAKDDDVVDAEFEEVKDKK

Question: `Cc1c2non([O-])c-2c(C)[n+](=O)[n+]1[O-]` was tested. Which Kd did it give?
Answer: inactive: > 4 mM

From PubChem BioAssay AID1033 (Sanford-Burnham Center for Chemical Genomics, 2008)
